Like-named read-outs stand apart in the source and are kept apart here.
Biological target: T1, VP1 of FMDV O1 Kaufbeuren in infected cells (FMDV type O, O1 Kaufbeuren, UniProt P03305)
T1 construct: source: IBRS-2 cells infected with FMDV O1K, fixed and permeabilised
Assay: immunostaining of cells or tissue

B1: mouse/rabbit D9 chimeric antibody (antibody, V domains shown)
VH: QVQLQESGGGLVQPGGSLKLSCAASGFTFSTYGMSWVRQTPDKRLELVATTITNGGSTYYPDSVKGRFTISRDNAKNTLYLQMSSLKFEDTAMYYCAREGGDYSAWFAYWGQGTTVTVSS
VL: DIELTQSPSSLTVTTGEKVTMNCKSSQNLLNSINQKNYLTWYQQKPGQPPKVLIYWASTRDSGVPDRFTGSGSGTDFTLTISSVQAEDLAVYYCQNDYTYPLTFGAGTKLEIK
B1: binds.

B2: mouse monoclonal antibody D9 (antibody, V domains shown)
VH: B1 VH
VL: B1 VL
notes: also called MAb D9; Anti-O MAb D9; source: mouse MAb; diluted ascites or purified antibody
B2: binds (one partner purified).

From publication PMC6095514, “Generation and characterisation of recombinant FMDV antibodies: Applications for advancing diagnostic and laboratory assays” (PLoS ONE, 2018)
